Results published in patent US20230313299A1, “METHOD FOR DIAGNOSIS AND/OR PROGNOSIS OF LIVER DISEASE PROGRESSION AND RISK OF HEPATOCELLULAR CARCINOMA AND DISCOVERY OF THERAPEUTIC COMPOUNDS AND TARGETS TO TREAT LIVER DISEASE AND CANCER” (UNIVERSITÉ DE STRASBOURG, priority 2020, published 2023).

Tested on: H3K27ac
Experiment: H3K27ac ChIPmentation-based ChIP-Seq with RNA-Seq of NASH and CHC patient liver tissue (Table S3)
Set-up: species or system human
Conditions: CHC (HCV) patients liver tissue; negative changes indicate good prognosis genes, positive changes poor prognosis genes

DAB1
Epigenetic (H3K27ac) log2FC, HCV: −0.5361
